Anti-infective test results gathered from many reports (values: NIAID ChemDB through PubChem).

Shared fields: toxicity to cultured cells; cell line: MT-4; measure: CC50

CCn: concentration that lowers growth or viability of the cells by n%. Conditions beyond the fields shown may differ between rows.

c1cc(CCNCCCN2CCCC2)ccc1CCNCCCN1CCCC1 ; value: 37 µg/mL
CCc1c(Sc2cccc3ccccc23)nc(SCC(=O)c2ccc(F)cc2F)[nH]c1=O ; method: MTT ; value: 41.03 µM
Nc1ccn([C@H]2CC[C@@H](CO)O2)c(=O)n1 ; value: 134 µM
CC(C)=CCc1c(O)c(CC=C(C)C)c2c(c1O)-c1cc(O)c(O)cc1CC2 ; value: 2 µg/mL
Cc1cn([C@H]2C=C[C@@H](CO)O2)c(=O)[nH]c1=O ; method: MTT ; value: 146 µM
COc1ccc(/C=C/C(=O)O)cc1OC ; method: MTT ; value: 118 µM
CCC(Cc1ccccc1)c1cc(O)c(C(c2cccc(NC(=O)[C@H](Cc3cn(S(=O)(=O)c4ccc(C)cc4)cn3)NC(=O)OC(C)(C)C)c2)C2CC2)c(=O)o1 ; value: >30 µM
COCOc1cc(O)c(C(=O)/C=C/c2ccccc2)c(OCOC)c1 ; value: 8 µg/mL
COc1ccc2nc3cc(Cl)ccc3c(NCCC[C@@H]3CCCN4CCCC[C@H]34)c2c1 ; method: MTT ; value: 1.3 µM
C1CCNCCNCCCNCCNC1 ; value: >930 µM
CCC(Cc1ccccc1)c1cc(O)c(C(c2cccc(NC(=O)[C@@H](C)NC(=O)OC(C)(C)C)c2)C2CC2)c(=O)o1 ; value: >30 µM
C(CCC1CNCCNCCCNCCNC1)CCC1CNCCNCCCNCCNC1 ; value: 110 µM
Nc1nc2c(ncn2[C@H]2CC[C@@H](CO)O2)c(=O)[nH]1 ; value: 1.4 µM
c1cc(CN2CCCNCCNCCCNCC2)ccc1CN1CCCNCCNCCCNCC1 ; value: >125 µg/mL
CC(C)=CCc1c(-c2ccc(O)cc2O)oc2c([C@H]3C=C(C)C[C@@H](c4ccc(O)cc4O)[C@@H]3C(=O)c3ccc(O)cc3O)c(O)cc(O)c2c1=O ; value: 66 µg/mL
Cc1cn([C@H]2CC[C@@H](CO)O2)c(=O)[nH]c1=O ; value: >125 µM
COC(=O)C1=C[C@H](O)[C@@H](O)[C@H](O)C1 ; method: MTT ; value: >200 µM
Fc1ccc(F)c(C2OCc3nc4ccccc4n32)c1 ; value: 34.9 µM
c1cc(CCNCCCN2CCCCC2)ccc1CCNCCCN1CCCCC1 ; value: 47 µg/mL
Cc1cn([C@H]2C=C[C@@H](COP(=O)(O)N(CC(=O)O)CC(=O)O)O2)c(=O)[nH]c1=O ; method: MTT ; value: 173 µM
Cc1c(C(C)c2c(F)cccc2F)nc(SC2CCCC2)[nH]c1=O ; value: >200 µM
O=c1ccn([C@H]2C=C[C@@H](CO)O2)c(=O)[nH]1 ; value: 27 µM
COc1ccc2nc3cc(Cl)ccc3c(NC3CN4CCC3CC4)c2c1 ; method: MTT ; value: 1.9 µM
O=c1ccn([C@H]2CC[C@@H](CO)O2)c(=O)[nH]1 ; value: >250 µM
C[C@H](Cn1cnc2c(=O)[nH]c(N)nc21)OCP(=O)(O)O ; value: >200 µM
COc1ccc2nc3cc(Cl)ccc3c(N[C@@H]3CCCN4CCCC[C@H]34)c2c1 ; method: MTT ; value: 9.3 µM
Nc1nc2c(ncn2[C@H]2CC[C@@H](CO)O2)c(=O)[nH]1 ; value: 486 µM
COc1ccc2nc3cc(Cl)ccc3c(NCCN3CCCC(O)C3)c2c1 ; method: MTT ; value: 1.5 µM
Nc1ncnc2c1ncn2CCOCP(=O)(O)O ; value: 200 µM
COc1cc(OC2O[C@H](CO)[C@@H](O)[C@H](O)[C@H]2O)cc(OC)c1OC ; method: MTT ; value: >200 µM
COP(=O)(O)C[C@H](NP(=O)(O)OC[C@@H]1C=C[C@H](n2cc(C)c(=O)[nH]c2=O)O1)C(=O)O ; method: MTT ; value: 146 µM
C[C@H](Cn1cnc2c(N)ncnc21)OCP(=O)(O)OP(=O)(O)OP(=O)(O)O ; value: >200 µM
Cc1cn([C@H]2C=C[C@@H](CO)O2)c(=O)[nH]c1=O ; value: 1.2 µM
Cc1cc2c3c(c1)-c1c(O)cc(-c4cc5ccc(O)cc5o4)cc1OC3(c1ccc(O)cc1O)Oc1cc(O)ccc1-2 ; value: 9 µg/mL
CC(=O)[C@]12CCC(C)(C)C=C1C1=CCC3[C@@]4(C)CCC(=O)C(C)(C)C4CC[C@@]3(C)[C@]1(C)CC2 ; method: MTT ; value: 41.19 µM
CCc1c(Sc2ccccc2)nc(SCC(=O)c2ccc(OC)cc2)[nH]c1=O ; method: MTT ; value: 181 µM
O=c1cc2ccccc2c(O)n1O ; method: MTT ; value: 69.13 µM
COc1ccc2nc3cc(Cl)ccc3c(NCCCCCO)c2c1 ; method: MTT ; value: 2 µM
Fc1ccc(Cl)c(C2OCc3nc4ccccc4n32)c1 ; value: 32.6 µM
C=C(Cn1cnc2c(=O)[nH]c(N)nc21)OCP(=O)(O)OP(=O)(O)OP(=O)(O)O ; value: >200 µM
COc1ccc2nc3cc(Cl)ccc3c(NCC[C@@H]3CCCN4CCCC[C@H]34)c2c1 ; method: MTT ; value: 0.7 µM
COc1ccc(Oc2coc3cc(O)cc(O)c3c2=O)c(OC)c1 ; value: 47 µg/mL
CC(C)=CCC/C(C)=C/CC/C(C)=C/CC/C(C)=C/Cc1cc(O)cc2c1OC(=O)C2=C(C)C ; method: MTT ; value: 26.08 µM
C1CNCCNCC(CCCC2CNCCNCCCNCCNC2)CNCCNC1 ; value: 120 µM